Pooled drug test results. Numbers come from NIAID ChemDB, via PubChem.

Shared fields: whole-cell or culture tests; organism: Mycobacterium tuberculosis

MIC bound comes from a single tested concentration. Inhibition is in % at the dose shown (toxicity tests: loss of growth or viability). An empty or dashed field is not shown. Conditions beyond the fields shown may differ between rows. a–b is a range or a potency band. ECn: concentration that inhibits the pathogen or its effect by n%. MIC50, MIC90 and the like: level of inhibition, or share of isolates inhibited.

smiles,dose,conditions,mutations,strain,endpoint,read by,result
N#Cc1ccc(Cn2ccc3c4c(N)nc(N)nc4ccc32)cc1,,,,ATCC 2724,EC50,resazurin,5.88 µM
COc1ccc(C2c3ccccc3C3(O)CC2CC(=O)O3)cc1,,,,H37Rv,MIC bound,BACTEC,>12.5 µg/mL
O=C(Oc1cc(Cl)ccc1C(=O)Nc1cccc(Cl)c1)c1cnccn1,,14 d,,H37Rv 331/88,MIC,,2 µM
Cn1c(=O)c2c(nc3n(CC(O)CCl)c(=O)ccn23)n(C)c1=O,,,,H37Rv,MIC bound,resazurin,>6.25 µg/mL
O=[N+]([O-])c1cccc(CS(=O)(=O)c2nnc(-c3ccc([N+](=O)[O-])s3)s2)c1,,,,,MIC,,>6.25 µg/mL
C/C=C(\C)C(=O)OC/C=C\C#CC#C/C=C\C(=O)OC,,,,H37Rv,MIC,,>100 µg/mL
Cc1ccc2c(c1)nc(-c1ccc(Cl)cc1)c1[nH]ccc12,,,,H37Rv,MIC,visual reading / absorbance,17.1 µM
O=C(NNS(=O)(=O)C1CCCCC1)C1CCNCC1,,,,BCG,MIC,,3 µg/mL
CC(=O)NC[C@H]1CN(c2ccc(N3CCN(Cc4ccc([N+](=O)[O-])o4)CC3)c(F)c2)C(=O)O1,,,,59 isolates,MIC90,,8 µg/mL
CC1(C)OC2(CC1C1(C)C=CC(=O)O1)CC1C(O)(CCC34CC13C(=O)OC4c1ccoc1)O2,12.5 µg/mL,,,H37Rv,inhibition,BACTEC,11%
CCN(CC)N(C)C(=O)COc1cc2c(O)c3c(O)c(C)c4c(c13)C(=O)[C@@](C)(O/C=C/[C@H](OC)[C@@H](C)[C@@H](OC(C)=O)[C@H](C)[C@H](O)[C@H](C)[C@@H](O)[C@@H](C)/C=C/C=C(/C)C(=O)N2)O4,,,,,EC50,,0.37 µg/mL
Brc1ccc2nc(CCC3CCCCC3)[nH]c2c1,,,4/1 MmpL3 (V285A),H37Rv,MIC90,visual reading / absorbance,19.5 µM
Cc1c(C(=O)NCc2ccc(Cl)cc2)[n+](=O)c2cc(Cl)ccc2n1[O-],,,,H37Rv,EC90,resazurin,26.98 µg/mL
CCCN(C(=O)COc1cc2c(O)c3c(O)c(C)c4c(c13)C(=O)[C@@](C)(O/C=C/[C@H](OC)[C@@H](C)[C@@H](OC(C)=O)[C@H](C)[C@H](O)[C@H](C)[C@@H](O)[C@@H](C)/C=C/C=C(/C)C(=O)N2)O4)N(CC)CC,,,,,EC50,,0.15 µg/mL
CO/N=C1\C[C@@H](C)O[C@@H](O[C@@H]2[C@@H](C)[C@H](O[C@H]3CC(C)N(C)C[C@H](C)O3)[C@@H](C)C(=O)O[C@H]([C@@H](C)CO[C@@H]3O[C@H](C)[C@@H](O)[C@@H](OC)[C@H]3OC)[C@H](C)[C@@H](OC(=O)CC(C)C)[C@@H](C)C(=O)[C@@](C)(OC(=O)N3CCOCC3)C[C@@H]2C)[C@@H]1O,,,,H37Rv,MIC,resazurin,1.11 µM
CCN(CC)CCCCOc1ccc(/C=C2\CC/C(=C\c3ccc(OCCCCN(CC)CC)cc3)C2=O)cc1,,,,H37Rv,EC50,visual reading,6.25 µM
O=C(Oc1ccc(Cl)cc1C(=O)Nc1ccc(Cl)c(Cl)c1)c1cnccn1,,14 d,,extensively drug resistant Praha 131,MIC,,0.5 µM
C=C1CCC(OC(C)=O)C2(C)C(OC(C)=O)CC3OC3(C)C2C(OC(C)=O)C2C(C)C(=O)OC2C1Cl,,,,H37Rv,MIC,BACTEC,≥12.5 µg/mL
CCC(O)C#CC#C/C=C\C(=O)OC,,,,H37Rv,MIC,,25 µg/mL
CCOC(=O)c1oc2ccc3ccccc3c2c1C,,,,H37Rv,MIC bound,BACTEC,>12.5 µg/mL
Cn1c([N+](=O)[O-])cnc1-c1nnc(S(=O)Cc2ccc([N+](=O)[O-])cc2)s1,,,,,MIC,,6.25 µg/mL
O[C@]12C=C(c3nccc4c3[nH]c3ccccc34)[C@@H]3CCN(CCCC/C=C/CC1)C[C@@]31C[C@@H]3/C=C\CCCCN3C12,,,,H37Rv,MIC,,<12.5 µg/mL
Cc1cc2c(c(C=Nc3ccc([N+](=O)[O-])cc3)c1)OC1(C=C2)Oc2ccccc2C(=O)N1C,6.25 µg/mL,,,H37Rv,inhibition,resazurin,13%
CCN1C(N2CCN(Cc3ccc([N+](=O)[O-])o3)CC2)=NS(=O)(=O)c2ccccc21,,,,H37Rv,MIC,broth dilution,4 µg/mL
O=C(Oc1ccc(Br)cc1C(=O)Nc1ccc(C(F)(F)F)cc1)c1cnccn1,,14 d,,extensively drug resistant Praha 131,MIC,,0.25 µM
C=CC(C)(C)C12CC3C(=O)N/C(=C\c4cnc[nH]4)C(=O)N3C1Nc1ccccc12,,,,H37Rv,MIC,BACTEC,≥12.5 µg/mL
CO[C@@H]1[C@H](O)[C@@H](C)O[C@@H](OC[C@H](C)[C@H]2OC(=O)[C@H](C)[C@@H](O[C@H]3C[C@@H](C)N(C)C[C@H](C)O3)[C@H](C)[C@@H](O[C@@H]3O[C@H](C)C/C(=C\C#N)[C@H]3O)[C@@H](C)C[C@](C)(OC(=O)N3CCO[C@H](C)C3)C(=O)[C@H](C)[C@H](OC(=O)CC(C)C)[C@H]2C)[C@@H]1OC,,,,H37Rv,MIC,resazurin,0.621 µM
NNC(=O)C1CCNC2CCCCC21,,,,BCG,MIC,,80 µg/mL
CC1CCN(CCCCOc2ccc(/C=C3\CC/C(=C\c4ccc(OCCCCN5CCC(C)CC5)cc4)C3=O)cc2)CC1,,,,H37Rv,MIC99,visual reading,3.12–6.25 µM
CN1CC2=C(NC(=S)NC2c2ccccc2)/C(=C\c2ccccc2)C1.Cl,12.5 µg/mL,,,H37Rv,inhibition,BACTEC,0%
CCCCC/C=C(/C(=O)O)C(C)C(=O)O,,,,H37Ra,MIC,,>200 µg/mL
COc1cc(/C=C2\CC/C(=C\c3ccc(OCCCCN4CCCCCC4)c(OC)c3)C2=O)ccc1OCCCCN1CCCCCC1,,,,H37Rv,MIC99,visual reading,12.5 µM
CCOC(=O)C(NC(=O)CC(C)C)(N1CCN(c2cc3c(cc2F)c(=O)c(C(=O)O)cn3C2CC2)CC1)C(F)(F)F,6.25 µg/mL,,,H37Rv,inhibition,resazurin,100%
Cn1c([N+](=O)[O-])cnc1-c1nnc(S(=O)Cc2ccccc2[N+](=O)[O-])s1,,,,,MIC,,>6.25 µg/mL
CCCCCN(C(=O)COc1cc2c(O)c3c(O)c(C)c4c(c13)C(=O)[C@@](C)(O/C=C/[C@H](OC)[C@@H](C)[C@@H](OC(C)=O)[C@H](C)[C@H](O)[C@H](C)[C@@H](O)[C@@H](C)/C=C/C=C(/C)C(=O)N2)O4)N(C)C,,,,,EC50,,0.18 µg/mL
O=C(NN(Cn1c(=S)sc2ccccc21)Cn1c(=S)sc2ccccc21)c1ccccc1O,,,,H37Rv,MIC bound,BACTEC,>12.5 µg/mL
CC(=O)c1ccccc1-n1ccc2c3c(N)nc(N)nc3ccc21.Cl,,,,ATCC 2724,EC50,resazurin,2.57 µM
O=C(Oc1ccc(Cl)cc1C(=O)Nc1ccc(Cl)cc1)c1cnccn1,,21 d,,H37Rv 331/88,MIC,,2 µM
Cc1ccc2c(c1)[n+](=O)c(C(=O)NCc1ccc(C(F)(F)F)cc1)c(C)n2[O-],,,,H37Rv,EC90,resazurin,>100 µg/mL
CCOC(=O)C(=O)NNc1ccc([N+](=O)[O-])cc1,,,,BCG,MIC,,0.03 µg/mL
COc1cc(/C=C2\CC/C(=C\c3ccc(OCCCCN4CCCC4)c(OC)c3)C2=O)ccc1OCCCCN1CCCC1,,,,H37Rv,MIC99,visual reading,12.5–25 µM
Nc1ncnc2c1ncn2[C@H]1C=C[C@@H](CO)O1,12.5 µg/mL,,,H37Rv,inhibition,BACTEC,0%
CCOc1cc(/C=C2\CC/C(=C\c3ccc(OCCCN4CCCCC4)c(OCC)c3)C2=O)ccc1OCCCN1CCCCC1,,,,H37Rv,MIC99,visual reading,12.5–25 µM
CN[C@@H]1[C@H](O[C@H]2[C@H](O[C@H]3[C@H](O)[C@@H](O)[C@H](N=C(N)N)[C@@H](O)[C@@H]3N=C(N)N)O[C@@H](C)[C@]2(O)C=O)O[C@@H](CO)[C@H](O)[C@H]1O,,,EJMCh6C MmpL3  (G253E),H37Rv,MIC90,visual reading,2 µM
O=C(CSc1nnc(-c2ccc3ncccc3c2)o1)Nc1nc2ccc([N+](=O)[O-])cc2s1,,,,H37Rv,MIC,agar,50 µg/mL
O=C1CCCN2C(CC1)C[C@@]13CN4CCCC/C=C/CC[C@@](O)(C=C(c5nccc6c5[nH]c5c(O)cccc56)[C@H]1CC4)[C@@H]23,,,,H37Rv,MIC,,<12.5 µg/mL
CC(=O)O.CC(=O)O.NCCCCC1NC(=O)C(CCCCN)NC1=O,12.5 µg/mL,,,H37Rv,inhibition,BACTEC,-5%
CC(=O)NC1CCC(/C=N\NC(=O)C2CCNCC2)CC1,,,,BCG,MIC,,0.08 µg/mL
O=C1c2ccccc2C(=O)c2c1cccc2N1C(=O)C=CC1=O,,,,H37Rv,MIC bound,BACTEC,>12.5 µg/mL
CCN(C(=O)COc1cc2c(O)c3c(O)c(C)c4c(c13)C(=O)[C@@](C)(O/C=C/[C@H](OC)[C@@H](C)[C@@H](OC(C)=O)[C@H](C)[C@H](O)[C@H](C)[C@@H](O)[C@@H](C)/C=C/C=C(/C)C(=O)N2)O4)N1CCCCC1,,,,,EC50,,0.045 µg/mL
CCOc1ccc(NC(=O)CSc2nnc(-c3ccc4ncccc4c3)o2)cc1,,,,H37Rv,MIC,agar,12.5 µg/mL
CCCCN(C(=O)COc1cc2c(O)c3c(O)c(C)c4c(c13)C(=O)[C@@](C)(O/C=C/[C@H](OC)[C@@H](C)[C@@H](OC(C)=O)[C@H](C)[C@H](O)[C@H](C)[C@@H](O)[C@@H](C)/C=C/C=C(/C)C(=O)N2)O4)N(CC)CC,,,,,EC50,,9.18 µg/mL
COc1ccc(/C=C2N=C(/C=C/c3ccccc3)OC\2=O)cc1OC,,,,H37Rv,MIC bound,BACTEC,>12.5 µg/mL
NNC(=O)c1ccncc1,,,,ATCC 27294,MIC,resazurin,0.22 µM
c1ccc(-c2cc3cc4c(cc3[nH]2)Oc2ccccc2O4)cc1,,,,H37Rv,MIC bound,BACTEC,>12.5 µg/mL
O=C(Oc1cc(Cl)ccc1C(=O)Nc1ccc(C(F)(F)F)cc1)c1cnccn1,,,,extensively drug resistant strain,MIC,,29.44 µM
CN[C@@H]1[C@H](O[C@H]2[C@H](O[C@H]3[C@H](O)[C@@H](O)[C@H](N=C(N)N)[C@@H](O)[C@@H]3N=C(N)N)O[C@@H](C)[C@]2(O)C=O)O[C@@H](CO)[C@H](O)[C@H]1O,,,,ATCC 25177,MIC,resazurin,48 µg/mL
CCOc1cc(/C=C2\CC/C(=C\c3ccc(OCCCN4CCCCC4C)c(OCC)c3)C2=O)ccc1OCCCN1CCCCC1C,,,,H37Rv,MIC99,visual reading,12.5 µM
CN(C)NC1=NS(=O)(=O)c2cc3c(=O)n(C)[nH]c3cc2S1,6.25 µg/mL,,,H37Rv,inhibition,resazurin,9%
C/C=C\C#CC#C/C=C\C(=O)OC,,,,H37Rv,MIC,,50 µg/mL
O=C(NCCCOCCOCCOCCNC(=O)c1ccc2c(c1)B(O)OC2)c1ccc2c(c1)B(O)OC2,,,,H37Rv,MIC,visual reading / absorbance,1560 µM
CCCCCCCCCCCC(=O)NN,,,,BCG,MIC,,3 µg/mL
O=C(CSc1nnc(-c2ccc3ncccc3c2)o1)Nc1nc2ccc(I)cc2s1,,,,H37Rv,MIC,agar,200 µg/mL
CC(=O)c1cccc(NC(=O)C(=O)Nn2c(N)nnc2N)c1,,,,H37Rv,MIC bound,BACTEC,>12.5 µg/mL
Cn1c([N+](=O)[O-])cnc1-c1nnc(S(=O)(=O)Cc2cccc([N+](=O)[O-])c2)s1,,,,,MIC,,6.25 µg/mL
CCCc1cc(=O)oc2c3c(c4c(c12)OC(C)(C)CC4)O[C@@H](C)[C@@H](C)C3=O,12.5 µg/mL,,,H37Rv,inhibition,BACTEC,41%
CC(C)/C=N/NC(=O)C1CCNCC1,,,,BCG,MIC,,0.1 µg/mL
O=C(CN1CCN(CC(=O)c2ccc(Cl)cc2)CC1)c1ccc(Cl)cc1,,,,H37Rv,MIC,BACTEC,≥12.8 µg/mL
O=C(CSc1nnc(-c2ccc3ncccc3c2)o1)Nc1ccc(Br)cc1,,,,H37Rv,MIC,agar,25 µg/mL
CCCCCCCCC[N+]12CC[N+](CCCCCCCCC)(CC1)CC2.[Br-].[Br-],,,,H37Rv,MIC,BACTEC,≥12.5 µg/mL
Cc1ccc(CNC(=O)c2c(C)n([O-])c3cc(Cl)c(Cl)cc3[n+]2=O)cc1,,,,H37Rv,EC90,resazurin,>100 µg/mL

A second listing of 4 rows from above:

| smiles | dose | conditions | mutations | strain | endpoint | read by | result |
|---|---|---|---|---|---|---|---|
| Cc1c(C(=O)NCc2ccc(Cl)cc2)[n+](=O)c2cc(Cl)ccc2n1[O-] |  |  |  | H37Rv | EC90 | resazurin | 26.98 µg/mL |
| O=C(CN1CCN(CC(=O)c2ccc(Cl)cc2)CC1)c1ccc(Cl)cc1 |  |  |  | H37Rv | MIC | BACTEC | ≥12.8 µg/mL |
| CCOC(=O)C(=O)NNc1ccc([N+](=O)[O-])cc1 |  |  |  | BCG | MIC |  | 0.03 µg/mL |
| CCCc1cc(=O)oc2c3c(c4c(c12)OC(C)(C)CC4)O[C@@H](C)[C@@H](C)C3=O | 12.5 µg/mL |  |  | H37Rv | inhibition | BACTEC | 41% |